Compound potency records, mixed from different reports. Data source: NIAID ChemDB in PubChem.

Common to all: growth or infection tests; agent: Cryptococcus neoformans

Two numbers with a dash give a range or band. An empty or dashed field is not shown. MIC50, MIC90 and the like: level of inhibition, or share of isolates inhibited. Lines come from different laboratories, so protocols vary.

N[C@H]1CCC[C@H]1C(=O)O ; endpoint: MIC ; strain: IAM 4514 ; result: >20 µg/mL
Cc1nc2c(s1)C(=O)C(Nc1ccccc1)=C(Cl)C2=O ; endpoint: MIC ; strain: KCCM 50564 ; method: broth dilution ; result: 12.5 µg/mL
Cc1ccccc1C(Cc1ccc(Cl)cc1Cl)Cn1ccnc1 ; endpoint: MIC ; result: 10 µg/mL
Cn1cncc1C(=O)c1nccc2c1[nH]c1ccccc12 ; endpoint: MIC ; result: 6 µg/mL
Clc1ccc(C(Cn2ccnc2)NC/C=C/c2ccccc2)c(Cl)c1 ; endpoint: MIC ; result: >50 µg/mL
CCCCCCCCCCCCCCN1CCc2cc(O)c(O)cc2C1 ; endpoint: MIC80 ; result: 100 µg/mL
Clc1ccc(C(Cn2ccnc2)NCc2cccc3ccccc23)c(Cl)c1 ; endpoint: MIC ; result: >50 µg/mL
COc1cc(NS(=O)(=O)c2ccc(N)cc2)ncn1 ; endpoint: MIC ; strain: IFM 40216 ; result: ≥256 µg/mL
Clc1ccc(CC(Cn2ccnc2)c2ccccc2Br)c(Cl)c1 ; endpoint: MIC ; result: <1 µg/mL
CC[C@@H]([C@H](C)O)n1ncn(-c2ccc(N3CCN(c4ccc(OC[C@@H]5CO[C@@](Cn6cncn6)(c6ccc(F)cc6F)C5)cc4)CC3)cc2)c1=O ; endpoint: MIC90 ; strain: 373 isolates ; result: 0.5 µg/mL
CSc1nc2ccccc2c(=O)n1/N=C1\C(=O)Nc2ccccc21 ; endpoint: MIC ; result: 19.53 µg/mL
C(=C\c1ccccc1)/CNC(Cn1ccnc1)c1ccccc1 ; endpoint: MIC ; result: >50 µg/mL
COc1cc(NS(=O)(=O)c2ccc(N)cc2)nc(OC)n1 ; endpoint: MIC ; strain: IFM 40215 ; result: ≥256 µg/mL
Cc1nn(-c2ccccc2)c2nsc(N)c12 ; endpoint: MIC ; result: 4–16 µg/mL
Cc1nc2c(s1)C(=O)C(Nc1ccc(F)cc1)=C(Cl)C2=O ; endpoint: MIC ; strain: KCCM 50564 ; method: broth dilution ; result: 6.3 µg/mL
N=C(N)c1ccc(OCCCC2CCN(CCCOc3ccc(C(=N)N)cc3)CC2)cc1 ; endpoint: MIC90 ; strain: 33 clinical isolates ; result: 0.0625 µg/mL
CSc1nc2ccccc2c(=O)n1/N=C1\C(=O)N(CN2CCOCC2)c2ccc(Cl)cc21 ; endpoint: MIC ; result: 4.88 µg/mL
C[C@H]1[C@H](O)[C@@H](C)/C=C/C=C/C=C/C=C/C=C/C=C/C=C/[C@H](O[C@@H]2O[C@H](C)[C@@H](O)[C@H](N)[C@@H]2O)C[C@@H]2O[C@](O)(C[C@@H](O)C[C@@H](O)CC[C@H](O)[C@@H](O)C[C@@H](O)CC(=O)O[C@H]1C)C[C@H](O)[C@H]2C(=O)O ; endpoint: MIC ; strain: MTCC 4406 ; method: absorbance ; result: 0.25 µg/mL
Cc1nc2c(s1)C(=O)C(Nc1ccc(Br)cc1)=C(Cl)C2=O ; endpoint: MIC ; strain: KCCM 50564 ; method: broth dilution ; result: 6.3 µg/mL
CCC(C)n1ncn(-c2ccc(N3CCN(c4ccc(OC[C@H]5CO[C@](Cn6cncn6)(c6ccc(Cl)cc6Cl)O5)cc4)CC3)cc2)c1=O ; endpoint: MIC50 ; method: broth dilution ; result: 0.13 µg/mL
Clc1ccc(C(Cn2ccnc2)NCc2ccc(-c3ccccc3)cc2)cc1 ; endpoint: MIC ; result: 1.5 µg/mL
Cc1cc(NS(=O)(=O)c2ccc(N)cc2)nc(C)n1 ; endpoint: MIC ; strain: IFM 49722 ; result: ≥256 µg/mL
Nc1[nH]c(=O)ncc1F ; endpoint: MIC ; method: broth dilution ; result: 12.5 µg/mL
Clc1ccccc1C(Cc1c(Cl)cccc1Cl)Cn1ccnc1 ; endpoint: MIC ; result: 10 µg/mL
Clc1ccc(C(Cn2ccnc2)OCc2cccc3ccccc23)cc1 ; endpoint: MIC ; result: >128 µg/mL
Nc1[nH]c(=O)ncc1F ; endpoint: MIC ; strain: ATCC66031 ; method: broth dilution ; conditions: 72 h ; result: 0.5 µg/mL
Cn1nc(Cc2ccc(Cl)cc2)c2ccccc2c1=O ; endpoint: MIC80 ; strain: Clinical isolate (IM 983036) ; method: broth dilution ; result: ≥250 µg/mL
c1ccc(C(Cn2ccnc2)NCc2cccc3ccccc23)cc1 ; endpoint: MIC ; result: >50 µg/mL
N=C(N)c1ccc2nc(-c3ccc(-c4nc5ccc(C(=N)N)cc5[nH]4)[nH]3)[nH]c2c1 ; endpoint: Geometric mean MFC ; strain: 9 strains ; result: 0.42 µg/mL
Nc1ccc(S(=O)(=O)Nc2ccnn2-c2ccccc2)cc1 ; endpoint: MIC ; strain: IFM 49624 ; result: 8 µg/mL
Fc1ccc(C(Cn2ccnc2)NCc2ccc(-c3ccccc3)cc2)cc1 ; endpoint: MIC ; result: 0.7 µg/mL
CSc1nc2ccccc2c(=O)n1/N=C1\C(=O)N(CN2CCOCC2)c2ccc(Br)cc21 ; endpoint: MIC ; result: 9.76 µg/mL
Cc1ccc(C(Cn2ccnc2)OCc2ccc(C(C)(C)C)cc2)cc1 ; endpoint: MIC ; result: >128 µg/mL
CCC(C)n1ncn(-c2ccc(N3CCN(c4ccc(OC[C@H]5CO[C@](Cn6cncn6)(c6ccc(Cl)cc6Cl)O5)cc4)CC3)cc2)c1=O ; endpoint: MIC ; strain: A25838 ; result: 0.06 µg/mL
Clc1ccc(CC(Cn2ccnc2)c2ccc(Cl)cc2Cl)cc1 ; endpoint: MIC ; result: <1 µg/mL
CSc1nc2ccccc2c(=O)n1/N=C1\C(=O)N(CN(C)C)c2ccc(Cl)cc21 ; endpoint: MIC ; result: 4.88 µg/mL
CCOC(=O)c1c(N)oc2c1cc(O)c1sc(C)nc12 ; endpoint: MIC ; strain: KCCM 50564 ; method: broth dilution ; result: 25 µg/mL
c1ccc(-c2ccc(COC(Cn3ccnc3)c3ccccc3)cc2)cc1 ; endpoint: MIC ; result: >128 µg/mL
Clc1ccc(CCC(Cn2ccnc2)c2ccc(Cl)cc2Cl)c(Cl)c1 ; endpoint: MIC ; result: <1 µg/mL
C(=C\c1ccccc1)/COC(Cn1ccnc1)c1ccccc1 ; endpoint: MIC ; result: >128 µg/mL
Clc1ccc(C(Cc2ccccc2Cl)Cn2ccnc2)c(Cl)c1 ; endpoint: MIC ; result: <1 µg/mL

The first 5 rows once more:

compound | endpoint | strain | method | conditions | result
N[C@H]1CCC[C@H]1C(=O)O | MIC | IAM 4514 | - | - | >20 µg/mL
Cc1nc2c(s1)C(=O)C(Nc1ccccc1)=C(Cl)C2=O | MIC | KCCM 50564 | broth dilution | - | 12.5 µg/mL
Cc1ccccc1C(Cc1ccc(Cl)cc1Cl)Cn1ccnc1 | MIC | - | - | - | 10 µg/mL
Cn1cncc1C(=O)c1nccc2c1[nH]c1ccccc12 | MIC | - | - | - | 6 µg/mL
Clc1ccc(C(Cn2ccnc2)NC/C=C/c2ccccc2)c(Cl)c1 | MIC | - | - | - | >50 µg/mL